Results of unrelated studies side by side (data: NIAID ChemDB).

Shared fields: tests in culture; agent: Mycobacterium avium

Percent inhibition refers to the dose given; in toxicity tests it is the harm to the cells.

{"structure": "Cc1nc2ccc(F)cn2c1C(=O)NCc1ccc(C2CCN(c3ccc(OC(F)(F)F)cc3)CC2)c(F)c1", "tested at": "0.011 µM", "read-out": "inhibition", "method": "fluorescence", "value": "85%"}
{"structure": "Cc1cn([C@H]2CC[C@@H](CO)O2)c(=O)[nH]c1=O", "strain": "ATCC 25291", "read-out": "EC50", "value": ">50 µg/mL"}
{"structure": "NNC(=O)c1ccncc1", "strain": "3337-4", "read-out": "MBC", "value": "80 µg/mL"}
{"structure": "O=c1[nH]c(=O)n([C@H]2O[C@@H](CO)[C@H](O)[C@@H]2O)cc1Br", "strain": "ATCC 25291", "read-out": "EC50", "value": ">50 µg/mL"}
{"structure": "CCc1nc2ccc(Cl)cn2c1C(=O)NCc1cc(F)c(N2CCN(c3ccc(OC(F)(F)F)cc3)[C@@H](C)C2)cc1F.Cl", "tested at": "0.014 µM", "read-out": "inhibition", "method": "fluorescence", "value": "85%"}
{"structure": "O=C(NNC(=O)c1ccncc1)Nc1ccc(F)c(C(F)(F)F)c1", "conditions": "21 d", "strain": "MY330/88", "read-out": "MIC100", "method": "broth dilution", "value": ">125 µM"}
{"structure": "CC[C@H]1CN(c2ccc(CNC(=O)c3c(C)nn4ccc(OC)cc34)cc2F)CCN1c1ccc(OC(F)(F)F)cc1.Cl", "tested at": "0.019 µM", "read-out": "inhibition", "method": "fluorescence", "value": "85%"}
{"structure": "Cc1ccc(NC(=O)NNC(=O)c2ccncc2)cc1", "conditions": "14 d", "strain": "MY330/88", "read-out": "MIC100", "method": "broth dilution", "value": "16 µM"}
{"structure": "CCc1nc2ccc(Cl)cn2c1C(=O)NCc1ccc(-n2cc3c(n2)CN(c2ccc(OC(F)(F)F)cc2)C3)c(F)c1.Cl", "tested at": "0.0051 µM", "read-out": "inhibition", "method": "fluorescence", "value": "85%"}
{"structure": "Fc1cc(Nc2nnc(-c3ccncc3)o2)ccc1Br", "conditions": "14 d", "strain": "MY330/88", "read-out": "MIC100", "method": "broth dilution", "value": ">125 µM"}
{"structure": "CCc1nc2cc(F)ccn2c1C(=O)NCc1ccc(N2CCN(c3ccc(OC(F)(F)F)c(F)c3)[C@@H](C)C2)c(F)c1.Cl", "tested at": "0.0025 µM", "read-out": "inhibition", "method": "fluorescence", "value": "85%"}
{"structure": "O=C(NNC(=O)c1ccncc1)Nc1ccc(Br)cc1F", "conditions": "21 d", "strain": "MY330/88", "read-out": "MIC100", "method": "broth dilution", "value": ">125 µM"}
{"structure": "O=c1[nH]c(=O)n([C@H]2C[C@H](O)[C@@H](CO)O2)cc1CCO", "tested at": "50 µg/mL", "strain": "ATCC 25291", "read-out": "inhibition", "value": "0%"}
{"structure": "O=C(NNC(=O)c1ccncc1)Nc1ccc(Cl)c(Cl)c1", "conditions": "21 d", "strain": "MY330/88", "read-out": "MIC100", "method": "broth dilution", "value": ">125 µM"}
{"structure": "Cc1cn([C@H]2C[C@H](F)[C@@H](CO)O2)c(=O)[nH]c1=O", "tested at": "50 µg/mL", "strain": "ATCC 25291", "read-out": "inhibition", "value": "0%"}

Repeating the first 2 entries:

Cc1nc2ccc(F)cn2c1C(=O)NCc1ccc(C2CCN(c3ccc(OC(F)(F)F)cc3)CC2)c(F)c1 ; tested at: 0.011 µM ; read-out: inhibition ; method: fluorescence ; value: 85%
Cc1cn([C@H]2CC[C@@H](CO)O2)c(=O)[nH]c1=O ; strain: ATCC 25291 ; read-out: EC50 ; value: >50 µg/mL

ECn is the concentration giving n% inhibition of infection, replication or growth. MIC50, MIC90 and the like: level of inhibition, or share of isolates inhibited. Rows are shuffled and stem from different studies.